# Reference: PubChem BioAssay AID1224833 (University of Georgia, 2016)
# Assay: 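Host factors restraining rotavirus as candidate antiviral genes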 (primary screen)
# Cell system: monkey MA104 kidney cells
# Knock-down reagent: siRNA pool against human genes, 50 nM
# Timing: 48 h knock-down before infection; read 24 h after infection
# Treatment: infection with rotavirus strain RV3 two days after transfection; infectious dose for this stage not given
# Detection: 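z-score of rotavirus antigen signal per well, from a fluorescent immunoassay, relative to non-targeting control wells on the same plate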
# Scale: z-score vs non-targeting control: higher = more rotavirus replication than with non-targeting control
# Call rule: In these data the active calls have z-score vs non-targeting control at about -1 or lower, or at about 1 or higher
# Meaning of the calls: active = z-score beyond 1 either way; inactive = z-score within 1 of zero
# In all, the deposit lists about 12,000 reagents; below is a random part of them. About 5,600 of all reagents (46%) count as active. 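Active calls cover z-scores past 1 in both directions, so they include lowered as well as raised rotavirus replication.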 A number with no mark means an inactive call.
gene knocked down,z-score vs non-targeting control
ADAM17,-2.97 (active)
OTUD6A,-0.978
POPDC3,-0.627
NDRG3,-0.145
SLC2A7,-0.657
SERPING1,0.342
PSG9,-0.9
LPO,-1.03 (active)
PLEKHG6,1.21 (active)
GMEB2,-0.846
TENM2,-0.651
PHTF1,-1.55 (active)
ACYP1,-2.51 (active)
RAB13,-1.15 (active)
MRPL1,0.869
ARFRP1,-0.971
PRODH,-1.04 (active)
PWP1,-0.104
BAG3,-2.61 (active)
TFCP2L1,0.754
GFI1B,-1.71 (active)
RGS19,-0.54
ZNF208,-1.28 (active)
OR52L1,0.0473
GYS2,-1.58 (active)
IL11RA,1.75 (active)
RBM45,-1.54 (active)
SLC16A1,-2.13 (active)
RPL27A,0.653
DEFB112,0.659
MANBA,-1.1 (active)
LRAT,1.06 (active)
CDK5RAP1,-0.847
EIF4EBP2,0.472
AKR1B15,-2.37 (active)
MYO1B,-1.35 (active)
SLC1A6,-0.128
MFAP3,1.76 (active)
DRICH1,-2.9 (active)
CXCR1,-0.789
CELA2A,2.31 (active)
CLASP1,-0.137
KLHL28,0.497
NCK1,-0.975
SEMA6D,-0.0983
TBATA,-0.704
OR4S2,-0.205
OR5M8,-0.395
ABCB9,-0.537
CEP70,-1.43 (active)
C8orf76,-0.459
PIGT,-0.128
C2orf76,-1.31 (active)
ERP27,0.714
FAM86C1P,-1.19 (active)
UBXN4,-0.849
QRSL1,-1.68 (active)
DEPDC5,-1.86 (active)
HAAO,-1.23 (active)
MRPL39,0.562
TPD52L1,-1.12 (active)
TNFSF4,-1.64 (active)
ZNF627,-0.205
SNTG1,1.35 (active)
CCDC85B,2.42 (active)
FOXR2,0.897
PCSK1N,1.2 (active)
PCDH1,0.242
SEC24A,-1.32 (active)
CXCL12,-0.132
HDAC7,1.67 (active)
ALG10,-2.39 (active)
S1PR2,3.35 (active)
BLVRA,-3.12 (active)
PRR4,0.121
MYH4,0.555
CD3E,-1.64 (active)
MC2R,-1.59 (active)
REEP4,-0.632
ARAP2,-0.678
CNFN,-1.32 (active)
ZNF556,-0.127
NFE2L1,2.01 (active)
ARSF,1.54 (active)
SMYD1,-1.23 (active)
RAB5B,-1.15 (active)
RPAP2,0.607
TMPRSS5,-1.04 (active)
NDUFB5,-0.66
TMEM97,-1.63 (active)
GALR1,-1.74 (active)
PLEKHA1,-2.55 (active)
OR4E2,-1.25 (active)
LMO4,1.29 (active)
ADAT1,0.65
ZNF623,1.16 (active)
SPTSSB,-0.641
MFSD8,-1.91 (active)
APRT,-1.13 (active)
SERPINA5,-1.94 (active)
COL5A2,-0.184
GTPBP2,0.737
LDHB,-1.03 (active)
LGR5,-1.02 (active)
BLOC1S1,-0.32
LZTR1,-0.702
ZNF223,-0.106
RFTN2,0.452
GPM6B,-3.06 (active)
VSTM1,-0.487

Copied from the list:
Under “z-score vs non-targeting control”, MFAP3 has 1.76 (active)
SLC2A7, z-score vs non-targeting control: -0.657
Under “z-score vs non-targeting control”, TENM2 reads -0.651
Under “z-score vs non-targeting control”, ZNF208 reads -1.28 (active)
For “z-score vs non-targeting control”, RAB13 is entered as -1.15 (active)
For “z-score vs non-targeting control”, MANBA shows -1.1 (active)
